The subject of this data set is Nc1ncnc2c1ncn2[C@@H]1O[C@H](COP(=O)(O)OP(=O)(O)OP(=O)(O)O)[C@@H](O)[C@H]1O. Briefly: cells, lysate or membranes. The conditions noted are these: 30 °C, Mg-ATP.
Where [1] appears, read: M2-Del905 (deletion of L905, same sequence as deletion of L904).

The Km is the concentration of substrate that gives half-maximal velocity. In general, Vmax refers to the top rate of the reaction or transport when substrate is in excess.

Take “Cdr1p (Cdr1p-GFP) (Candida albicans SC5314; DEL903-903)”: for the setting “M2-Del903 (deletion of T903)”, the Km turned out to be 6.7 ± 0.8 mM and the Vmax was determined as 0.0453 µmol/min/mg.

In the case of “Cdr1p (Cdr1p-GFP) (Candida albicans SC5314; DEL905-905)”, under setting [1], the Km is recorded as 2.9 ± 0.8 mM and the Vmax is 0.0992 µmol/min/mg.
